## PSTVd loop 15 mutant pool in Nicotiana benthamiana

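Three N. benthamiana plants were inoculated with the whole mutant pool. Samples came from the inoculated region at 5 days, the leaf margin at 10 and upper systemic leaves at 12.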

Region: loop 15 of PSTVd (intermediate strain), upper and lower strand joined, each 5' to 3', the first 7 letters being the upper strand, closing pairs included. Wild type: GGAAACCGCUACUAC. Varied positions (N): GGAAACCGNNNNNNC.

Numbers give reads per thousand; 0 = not seen among the reads, higher = more abundant.
Each site shows the three plants.
"Pool" is the share in the plasmid pool used as inoculum, on the same scale.
The inoculated region was read from the minus strand, the other sites from the plus strand.
IR is the inoculated region, LM the leaf margin, Sys the systemic leaves.
Wild type was 33.9 per thousand in the pool and the most common sequence in every sample (inoculated region 202, 200, 159; leaf margin 724, 746, 710; systemic leaves 856, 883, 880).
Samples held 43,870 to 66,106 reads, so the smallest values rest on one or two reads.
Sequences that differ at fixed positions probably stem from PCR or sequencing errors, and defective variants can be carried along by functional ones.

sequence	pool	IR	LM	Sys
GGAAACCGUUCGUUC	0.192	0.360 / 0.209 / 0.267	0.0808 / 0.0445 / 0.180	0.0161 / 0.0756 / 0.0912
GGAAACCGUUCUAAC	0.288	0.278 / 0.305 / 0.533	0.0323 / 0.0891 / 0.0601	0.0644 / 0 / 0
GGAAACCGUUCUACC	0.176	0.0655 / 0.0964 / 0.0762	0 / 0 / 0	0 / 0 / 0
GGAAACCGUUCUAGC	0.176	0.115 / 0.112 / 0.0571	0.0162 / 0.0223 / 0.0200	0.0161 / 0 / 0
GGAAACCGUUCUAUC	0.288	0.377 / 0.530 / 0.362	0.0647 / 0.134 / 0.220	0.0322 / 0.0151 / 0
GGAAACCGUUCUCAC	0.112	0.278 / 0.353 / 0.438	0.162 / 0.0668 / 0.220	0.0644 / 0.0756 / 0.0912
GGAAACCGUUCUCCC	0.160	0.0655 / 0.112 / 0.0952	0 / 0 / 0.0200	0 / 0 / 0
GGAAACCGUUCUCGC	0.208	0.344 / 0.273 / 0.190	0.0162 / 0 / 0.0200	0 / 0 / 0
GGAAACCGUUCUCUC	0.192	0.0983 / 0.0964 / 0.133	0.0162 / 0 / 0.0200	0 / 0 / 0
GGAAACCGUUCUGAC	0.208	0.131 / 0.0643 / 0.190	0.0162 / 0.0223 / 0.0200	0 / 0 / 0
GGAAACCGUUCUGCC	0.224	0.0328 / 0.0321 / 0.133	0 / 0.0223 / 0	0 / 0 / 0
GGAAACCGUUCUGGC	0.368	0.0983 / 0.129 / 0.0571	0 / 0 / 0.0200	0 / 0 / 0
GGAAACCGUUCUGUC	0.288	0.0983 / 0.0482 / 0.171	0 / 0.0223 / 0	0 / 0 / 0
GGAAACCGUUCUUAC	0.192	0.197 / 0.321 / 0.209	0.0647 / 0.134 / 0.160	0.0161 / 0.0454 / 0.137
GGAAACCGUUCUUCC	0.208	0.0819 / 0.0964 / 0.171	0.0162 / 0.0445 / 0	0 / 0 / 0
GGAAACCGUUCUUGC	0.224	0.409 / 0.209 / 0.476	0.162 / 0.0445 / 0.120	0.0322 / 0 / 0
GGAAACCGUUCUUUC	0.224	0.377 / 0.337 / 0.495	0.178 / 0.156 / 0.100	0.0322 / 0.0454 / 0.0228
GGAAACCGUUGAAAC	0.240	0.115 / 0.0964 / 0.114	0 / 0.0223 / 0.0200	0.0161 / 0 / 0
GGAAACCGUUGAACC	0.160	0.0655 / 0.129 / 0.152	0 / 0 / 0.0200	0 / 0 / 0
GGAAACCGUUGAAGC	0.256	0.131 / 0.0643 / 0.133	0 / 0.0223 / 0.0200	0 / 0 / 0
GGAAACCGUUGAAUC	0.160	0.0491 / 0.0643 / 0.0381	0.0162 / 0 / 0	0 / 0 / 0
GGAAACCGUUGACAC	0.240	0.0655 / 0.112 / 0.0762	0 / 0 / 0	0 / 0 / 0
GGAAACCGUUGACCC	0.160	0.115 / 0.0803 / 0.0571	0.0162 / 0 / 0	0 / 0 / 0
GGAAACCGUUGACGC	0.240	0.0983 / 0.129 / 0.171	0 / 0 / 0.0601	0.0161 / 0 / 0.0228
GGAAACCGUUGACUC	0.224	0.0655 / 0.0643 / 0.133	0 / 0 / 0	0 / 0 / 0
GGAAACCGUUGAGAC	0.192	0.0983 / 0.112 / 0.0571	0.0323 / 0.0223 / 0	0 / 0 / 0
GGAAACCGUUGAGCC	0.208	0.0819 / 0.0803 / 0.0381	0 / 0 / 0.0401	0.0322 / 0 / 0
GGAAACCGUUGAGGC	0.272	0.0491 / 0.0643 / 0.0381	0 / 0.0223 / 0.0801	0 / 0 / 0
GGAAACCGUUGAGUC	0.224	0.0164 / 0.129 / 0.114	0 / 0 / 0	0 / 0 / 0
GGAAACCGUUGAUAC	0.304	0.344 / 0.402 / 0.438	0.162 / 0.0445 / 0.200	0.0322 / 0.0908 / 0.0912
GGAAACCGUUGAUCC	0.336	0.0983 / 0.209 / 0.0571	0.0162 / 0 / 0	0 / 0 / 0
GGAAACCGUUGAUGC	0.160	0.0819 / 0.0803 / 0.114	0.0162 / 0 / 0.0200	0 / 0 / 0
GGAAACCGUUGAUUC	0.256	0.278 / 0.209 / 0.343	0.0647 / 0.0445 / 0.120	0 / 0 / 0
GGAAACCGUUGCAAC	0.368	0.0491 / 0.177 / 0.0381	0 / 0.0223 / 0.0401	0 / 0 / 0
GGAAACCGUUGCACC	0.144	0.0819 / 0.0643 / 0.0952	0.0323 / 0.0223 / 0.0401	0.0322 / 0 / 0
GGAAACCGUUGCAGC	0.176	0.164 / 0.129 / 0.0571	0 / 0.0223 / 0	0 / 0 / 0
GGAAACCGUUGCAUC	0.144	0.0983 / 0.0161 / 0.114	0 / 0 / 0.0401	0 / 0 / 0
GGAAACCGUUGCCAC	0.272	0.115 / 0.0803 / 0.0762	0.0162 / 0 / 0.0200	0 / 0 / 0
GGAAACCGUUGCCCC	0.208	0.0819 / 0.0643 / 0.114	0 / 0 / 0.0401	0 / 0 / 0
GGAAACCGUUGCCGC	0.304	0.0983 / 0.0321 / 0.0190	0.0162 / 0 / 0	0 / 0 / 0
GGAAACCGUUGCCUC	0.144	0.0819 / 0.112 / 0.0762	0 / 0 / 0	0 / 0 / 0
GGAAACCGUUGCGAC	0.320	0.0983 / 0.112 / 0.0952	0 / 0 / 0	0 / 0 / 0
GGAAACCGUUGCGCC	0.208	0.197 / 0.0643 / 0.0571	0 / 0 / 0	0 / 0 / 0
GGAAACCGUUGCGGC	0.240	0.0491 / 0.0803 / 0.0190	0 / 0.0223 / 0	0 / 0 / 0
GGAAACCGUUGCGUC	0.176	0.0491 / 0.0482 / 0.0762	0.0485 / 0 / 0.0200	0 / 0 / 0
GGAAACCGUUGCUAC	0.176	0.344 / 0.177 / 0.400	0.0808 / 0.0668 / 0.180	0.0966 / 0.136 / 0.0228
GGAAACCGUUGCUCC	0.192	0.115 / 0.129 / 0.0762	0.0162 / 0 / 0	0 / 0 / 0
GGAAACCGUUGCUGC	0.224	0.0983 / 0.161 / 0.133	0 / 0.0223 / 0.0200	0 / 0 / 0
GGAAACCGUUGCUUC	0.272	0.328 / 0.353 / 0.343	0.113 / 0.0891 / 0.120	0.0322 / 0 / 0
GGAAACCGUUGGAAC	0.192	0.213 / 0.273 / 0.267	0.194 / 0.178 / 0.140	0.0966 / 0.0908 / 0.160
GGAAACCGUUGGACC	0.192	0.0819 / 0.0321 / 0.0381	0 / 0 / 0.0401	0 / 0 / 0.0228
GGAAACCGUUGGAGC	0.288	0.0655 / 0.0964 / 0.133	0 / 0 / 0.0200	0 / 0 / 0
GGAAACCGUUGGAUC	0.320	0.180 / 0.0803 / 0.0762	0.0323 / 0 / 0.0200	0 / 0 / 0
GGAAACCGUUGGCAC	0.288	0.0655 / 0.0964 / 0.114	0 / 0 / 0.0401	0 / 0 / 0
GGAAACCGUUGGCCC	0.176	0.0655 / 0.0643 / 0.0762	0 / 0 / 0.0200	0 / 0 / 0
GGAAACCGUUGGCGC	0.240	0.0655 / 0.0803 / 0.0381	0 / 0.0223 / 0	0 / 0 / 0
GGAAACCGUUGGCUC	0.144	0.115 / 0.0643 / 0.0571	0.0162 / 0.0223 / 0	0 / 0 / 0
GGAAACCGUUGGGAC	0.192	0.278 / 0.273 / 0.248	0.146 / 0.0891 / 0.0601	0.0805 / 0 / 0
GGAAACCGUUGGGCC	0.256	0.0655 / 0.145 / 0.0952	0.0323 / 0 / 0.0200	0 / 0 / 0
GGAAACCGUUGGGGC	0.256	0.164 / 0.129 / 0.0762	0.0162 / 0 / 0	0 / 0 / 0
GGAAACCGUUGGGUC	0.256	0.0491 / 0.0482 / 0	0 / 0.0223 / 0	0 / 0 / 0
GGAAACCGUUGGUAC	0.192	0.246 / 0.305 / 0.343	0.129 / 0.0891 / 0.220	0.0644 / 0.106 / 0.0456
GGAAACCGUUGGUCC	0.272	0.164 / 0.386 / 0.362	0.194 / 0.0445 / 0.140	0.0322 / 0 / 0
GGAAACCGUUGGUGC	0.320	0.426 / 0.418 / 0.286	0.129 / 0.134 / 0.100	0.0322 / 0.0454 / 0.137
GGAAACCGUUGGUUC	0.256	0.229 / 0.337 / 0.286	0.0647 / 0.111 / 0.120	0.0322 / 0.0908 / 0.0228
GGAAACCGUUGUAAC	0.160	0.360 / 0.161 / 0.457	0.0808 / 0.0668 / 0.180	0.0161 / 0 / 0
GGAAACCGUUGUACC	0.144	0.0819 / 0.0803 / 0.152	0 / 0 / 0.0200	0 / 0 / 0
GGAAACCGUUGUAGC	0.208	0.0983 / 0.0964 / 0.209	0 / 0.0223 / 0	0.0161 / 0 / 0
GGAAACCGUUGUAUC	0.0640	0.393 / 0.321 / 0.362	0.162 / 0.0445 / 0.120	0 / 0 / 0
GGAAACCGUUGUCAC	0.256	0.311 / 0.305 / 0.476	0.0808 / 0.134 / 0.120	0.0161 / 0 / 0
GGAAACCGUUGUCCC	0.208	0.131 / 0.129 / 0.0571	0.0162 / 0 / 0.0401	0 / 0 / 0
GGAAACCGUUGUCGC	0.192	0.0655 / 0.0321 / 0.133	0 / 0 / 0	0.0161 / 0 / 0

The measurements come from Wu et al. 2024 (doi:10.1371/journal.ppat.1012142).